Reference: PMC12678819, “Targeting bacterial kinases as a strategy to counteract antibiotic resistance” (2025)

Chains of the proteins cited; added tags and fusions are not shown. Residues count along the entry.
UniProt O68183, 1-301: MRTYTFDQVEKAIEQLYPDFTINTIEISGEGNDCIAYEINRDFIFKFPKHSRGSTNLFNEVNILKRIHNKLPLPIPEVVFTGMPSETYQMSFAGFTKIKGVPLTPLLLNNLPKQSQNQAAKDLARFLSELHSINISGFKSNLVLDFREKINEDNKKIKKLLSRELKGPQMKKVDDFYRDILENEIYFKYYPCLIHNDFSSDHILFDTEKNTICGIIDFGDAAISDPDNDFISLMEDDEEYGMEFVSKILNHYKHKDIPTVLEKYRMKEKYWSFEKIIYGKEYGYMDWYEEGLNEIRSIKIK

Tests used:
[1] = biological target: T1, APH(2”)-IVa (Enterococcus casseliflavus, UniProt O68183); assay: Thermal shift assay; settings: 500 µM compound
[2] = biological target: T1, APH(2”)-IVa; assay: Pyruvate Kinase-Lactate Dehydrogenase-coupled enzyme assay; settings: for Ki: 25°C, competitive vs MgATP, 100 µM kanamycin A; for Inhibition (%) at 10 µM: 10 µM compound
[3] = tested on: E. faecalis ATCC 29212; assay: Cellular uptake assay; settings: single replicate
[4] = tested on: S. aureus ATCC 33591 (MRSA); assay: Cellular uptake assay; settings: single replicate
[5] = tested on: Pseudomonas aeruginosa C0214; assay: Bacterial growth / checkerboard assay with kanamycin A

## Nc1cc(-c2ccn[nH]2)c(Cl)cn1
[1]
  ΔTm (°C) at 500 µM: 0.39 °C
[2]
  Ki: 20000 nM

## NC(=O)Cn1cc(-c2c(Cl)cnc3[nH]ccc23)nn1
[1]
  ΔTm (°C) at 500 µM: 0.45 °C
[2]
  Inhibition (%) at 10 µM: 82%
  Ki: 799 nM

## Nc1ccc(Cl)cn1
[1]
  ΔTm (°C) at 500 µM: 1.25 °C
[2]
  Inhibition (%) at 10 µM: 0.5%
  Ki: 500000 nM

## C[C@@H](CCO)n1cc(-c2c(Cl)cnc3[nH]ccc23)nn1
[1]
  ΔTm (°C) at 500 µM: 1.58 °C
[2]
  Inhibition (%) at 10 µM: 86%
  Ki: 482 nM

## C[C@H](CCO)n1cc(-c2c(Cl)cnc3[nH]ccc23)nn1
[1]
  ΔTm (°C) at 500 µM: 1.43 °C
[2]
  Inhibition (%) at 10 µM: 90%
  Ki: 348 nM

## C[C@@H](CO)n1cc(-c2c(Cl)cnc3[nH]ccc23)nn1
[1]
  ΔTm (°C) at 500 µM: 1.94 °C
[2]
  Inhibition (%) at 10 µM: 88%
  Ki: 613 nM

## O=C(Cn1cc(-c2c(Cl)cnc3[nH]ccc23)nn1)NCc1ccccc1
[1]
  ΔTm (°C) at 500 µM: -0.20 °C
[2]
  Inhibition (%) at 10 µM: 62%
  Ki: 9900 nM

## Cc1cc(-c2cc(N)ncc2Cl)[nH]n1
[1]
  ΔTm (°C) at 500 µM: 0.51 °C
[2]
  Inhibition (%) at 10 µM: 40%
  Ki: 9950 nM

## COC(=O)Cn1cc(-c2c(Cl)cnc3[nH]ccc23)nn1
[1]
  ΔTm (°C) at 500 µM: 1.48 °C
[2]
  Inhibition (%) at 10 µM: 91%
  Ki: 425 nM

## OCCn1cc(-c2c(Cl)cnc3[nH]ccc23)nn1
[1]
  ΔTm (°C) at 500 µM: 1.12 °C
[2]
  Inhibition (%) at 10 µM: 77%
  Ki: 2400 nM

## C[C@H](CO)Cn1cc(-c2c(Cl)cnc3[nH]ccc23)nn1
[1]
  ΔTm (°C) at 500 µM: 1.51 °C
[3]
  concentration in cell lysate: 1.15 ng/mL
  concentration in cytoplasm: 1.65 ng/mL and 1.13 ng/mL
  concentration in periplasm: 1.78 ng/mL and 1.1 ng/mL
[4]
  concentration in cell lysate: 1.28 ng/mL and 1.64 ng/mL and 1.22 ng/mL
  concentration in cytoplasm: 0.241 ng/mL and 0.347 ng/mL and 0.466 ng/mL
  concentration in membrane: 0.243 ng/mL and 0.237 ng/mL and 0.161 ng/mL
  concentration in periplasm: 0.384 ng/mL and 0.893 ng/mL and 0.839 ng/mL
[2]
  Inhibition (%) at 10 µM: 91%
  Ki: 375 nM

## N#Cc1ccc(Cn2cc(-c3c(Cl)cnc4[nH]ccc34)nn2)cc1
[1]
  ΔTm (°C) at 500 µM: 0.26 °C
[2]
  Inhibition (%) at 10 µM: 44%
  Ki: 16200 nM

## Clc1cnc2[nH]ccc2c1-c1cn(-c2ccccc2)nn1
[1]
  ΔTm (°C) at 500 µM: 0.49 °C
[2]
  Inhibition (%) at 10 µM: 87%
  Ki: 916 nM

## OC[C@H](O)Cn1cc(-c2c(Cl)cnc3[nH]ccc23)nn1
[1]
  ΔTm (°C) at 500 µM: 1.56 °C
[2]
  Inhibition (%) at 10 µM: 85%
  Ki: 479 nM

## Clc1cnc2[nH]ccc2c1-c1cn(Cc2ccccc2)nn1
[1]
  ΔTm (°C) at 500 µM: 0.37 °C
[2]
  Inhibition (%) at 10 µM: 63%
  Ki: 6500 nM

## Cc1ccc(-n2cc(-c3c(Cl)cnc4[nH]ccc34)nn2)cc1
[1]
  ΔTm (°C) at 500 µM: -0.20 °C
[2]
  Inhibition (%) at 10 µM: 40%
  Ki: > 10000 nM

## CC(C)(C)C(=O)OCn1cc(-c2c(Cl)cnc3[nH]ccc23)nn1
[1]
  ΔTm (°C) at 500 µM: 2.04 °C
[2]
  Inhibition (%) at 10 µM: 82%
  Ki: 2400 nM

## C[C@@H](O)CCn1cc(-c2c(Cl)cnc3[nH]ccc23)nn1
[1]
  ΔTm (°C) at 500 µM: 1.33 °C
[3]
  concentration in cell lysate: 1.06 ng/mL and 1.12 ng/mL
  concentration in cytoplasm: 1.24 ng/mL and 1.16 ng/mL
  concentration in membrane: 1.12 ng/mL
  concentration in periplasm: 1.47 ng/mL
[4]
  concentration in cell lysate: 1.65 ng/mL and 0.952 ng/mL and 1.49 ng/mL
  concentration in cytoplasm: 0.3 ng/mL and 0.321 ng/mL and 0.297 ng/mL
  concentration in membrane: 0.199 ng/mL and 0.107 ng/mL and 0.0887 ng/mL
[2]
  Inhibition (%) at 10 µM: 91%
  Ki: 444 nM

## C[C@@H](O)Cn1cc(-c2c(Cl)cnc3[nH]ccc23)nn1
[1]
  ΔTm (°C) at 500 µM: 1.27 °C
[2]
  Inhibition (%) at 10 µM: 87%
  Ki: 443 nM

## COc1ccc(CNC(=O)Cn2cc(-c3c(Cl)cnc4[nH]ccc34)nn2)cc1
[1]
  ΔTm (°C) at 500 µM: -0.33 °C
[2]
  Inhibition (%) at 10 µM: 25%
  Ki: > 10000 nM

## Fc1cccc(-n2cc(-c3c(Cl)cnc4[nH]ccc34)nn2)c1
[1]
  ΔTm (°C) at 500 µM: 0.16 °C
[2]
  Inhibition (%) at 10 µM: 72%
  Ki: 2700 nM

## O=C(O)Cn1cc(-c2c(Cl)cnc3[nH]ccc23)nn1
[1]
  ΔTm (°C) at 500 µM: 1.36 °C
[2]
  Inhibition (%) at 10 µM: 24%
  Ki: 14500 nM

## Clc1cnc2[nH]ccc2c1-c1cn(-c2cccnc2)nn1
[1]
  ΔTm (°C) at 500 µM: 1.03 °C
[2]
  Inhibition (%) at 10 µM: 84%
  Ki: 376 nM

## C[C@H](CO)n1cc(-c2c(Cl)cnc3[nH]ccc23)nn1
[1]
  ΔTm (°C) at 500 µM: 1.09 °C
[2]
  Inhibition (%) at 10 µM: 74%
  Ki: 1000 nM

## Clc1cnc2[nH]ccc2c1-c1ccn[nH]1
[1]
  ΔTm (°C) at 500 µM: 3.23 °C
[2]
  Inhibition (%) at 10 µM: 90%
  Ki: 388 nM

## C[C@H](O)Cn1cc(-c2c(Cl)cnc3[nH]ccc23)nn1
[1]
  ΔTm (°C) at 500 µM: 1.60 °C
[2]
  Inhibition (%) at 10 µM: 86%
  Ki: 534 nM

## Fc1ccc(-n2cc(-c3c(Cl)cnc4[nH]ccc34)nn2)cc1
[1]
  ΔTm (°C) at 500 µM: 0.23 °C
[2]
  Inhibition (%) at 10 µM: 73%
  Ki: 6300 nM

## C[C@H](O)CCn1cc(-c2c(Cl)cnc3[nH]ccc23)nn1
[1]
  ΔTm (°C) at 500 µM: 1.31 °C
[2]
  Inhibition (%) at 10 µM: 90%
  Ki: 325 nM

## OC[C@@H](O)Cn1cc(-c2c(Cl)cnc3[nH]ccc23)nn1
[1]
  ΔTm (°C) at 500 µM: 1.21 °C
[5]; inhibitor 125 µM, KanaA 0 µg.mL-1
  OD600nm: 0.3662
[5]; inhibitor 125 µM, KanaA 8 µg.mL-1
  OD600nm: 0.3282
[5]; inhibitor 125 µM, KanaA 16 µg.mL-1
  OD600nm: 0.3218
[5]; inhibitor 125 µM, KanaA 32 µg.mL-1
  OD600nm: 0.1796
[5]; inhibitor 125 µM, KanaA 64 µg.mL-1
  OD600nm: 0.00015
[5]; inhibitor 125 µM, KanaA 128 µg.mL-1
  OD600nm: 0.0000
[5]; inhibitor 125 µM, KanaA 256 µg.mL-1
  OD600nm: 0.0000
[5]; inhibitor 125 µM, KanaA 512 µg.mL-1
  OD600nm: 0.0000
[5]; inhibitor 125 µM, KanaA 1024 µg.mL-1
  OD600nm: 0.0000
[5]; inhibitor 125 µM, KanaA 2048 µg.mL-1
  OD600nm: 0.0000
[5]; inhibitor 125 µM, KanaA 4096 µg.mL-1
  OD600nm: 0.0035
[5]; inhibitor 250 µM, KanaA 0 µg.mL-1
  OD600nm: 0.3709
[5]; inhibitor 250 µM, KanaA 8 µg.mL-1
  OD600nm: 0.3282
[5]; inhibitor 250 µM, KanaA 16 µg.mL-1
  OD600nm: 0.3352
[5]; inhibitor 250 µM, KanaA 32 µg.mL-1
  OD600nm: 0.1559
[5]; inhibitor 250 µM, KanaA 64 µg.mL-1
  OD600nm: 0.0000
[5]; inhibitor 250 µM, KanaA 128 µg.mL-1
  OD600nm: 0.0000
[5]; inhibitor 250 µM, KanaA 256 µg.mL-1
  OD600nm: 0.0000
[5]; inhibitor 250 µM, KanaA 512 µg.mL-1
  OD600nm: 0.0003
[5]; inhibitor 250 µM, KanaA 1024 µg.mL-1
  OD600nm: 0.0006
[5]; inhibitor 250 µM, KanaA 2048 µg.mL-1
  OD600nm: 0.0015
[5]; inhibitor 250 µM, KanaA 4096 µg.mL-1
  OD600nm: 0.0038
[5]; inhibitor 500 µM, KanaA 0 µg.mL-1
  OD600nm: 0.3763
[5]; inhibitor 500 µM, KanaA 8 µg.mL-1
  OD600nm: 0.3312
[5]; inhibitor 500 µM, KanaA 16 µg.mL-1
  OD600nm: 0.3413
[5]; inhibitor 500 µM, KanaA 32 µg.mL-1
  OD600nm: 0.0771
[5]; inhibitor 500 µM, KanaA 64 µg.mL-1
  OD600nm: 0.0000
[5]; inhibitor 500 µM, KanaA 128 µg.mL-1
  OD600nm: 0.0000
[5]; inhibitor 500 µM, KanaA 256 µg.mL-1
  OD600nm: 0.0000
[5]; inhibitor 500 µM, KanaA 512 µg.mL-1
  OD600nm: 0.0000
[5]; inhibitor 500 µM, KanaA 1024 µg.mL-1
  OD600nm: 0.0000
[5]; inhibitor 500 µM, KanaA 2048 µg.mL-1
  OD600nm: 0.0027
[5]; inhibitor 500 µM, KanaA 4096 µg.mL-1
  OD600nm: 0.0024
[2]
  Inhibition (%) at 10 µM: 90%
  Ki: 404 nM

Several values for one entry are separate records, joined by “and”; a condition that tells them apart may be missing. Equal entries are not always repeated.
